# Experimental data published in publication PMC12051497.
# For at least one entry, the source does not settle the construct or the ends of the probe.
# Test system: His-SUMO-AgtR (Pseudomonas aeruginosa PA14)
# Experiment: EMSA
# Conditions: 0, 4 or 8 uM AgtR; recombinant protein; protein details: N-terminal 6xHis-SUMO
sequence,measurement,value
GTTCGCTTTCCTCAGTTTTTTGTCGTAGAGTGCTGACAC (double strand) [PcspC-5],binding result,binds
